A mixed list of measured activities; the numbers were collected in NIAID ChemDB.

Shared fields: growth or infection tests; organism: Mouse cytomegalovirus

ECn: concentration that inhibits the pathogen or its effect by n%. An empty or dashed field is not shown. Lines come from different laboratories, so protocols vary. Two numbers with a dash give a range or band.

compound | measure | cells | read by | strain or isolate | result
Nc1nc(N)c2ncn(C=C3CC3CO)c2n1 | EC50 | MEF | plaque count |  | 0.6 µM
COc1cc(OC)c(NC(=S)Nc2ccc(NC(=O)c3ccco3)cc2)cc1Cl | EC50 | MEF |  | SMITH | >20 µM
CC(C)(CF)C(=O)Nc1cccc(NS(=O)(=O)c2ccc(-c3noc(-c4ccccc4)n3)cc2)c1 | EC50 | 3T3 | cytopathic effect | SMITH | 0.03 µM
Nc1ccn(C[C@@H](CO)OCP(=O)(O)O)c(=O)n1 | EC50 | MRC-5 | plaque count |  | 0.26 µM
Nc1nc2c(ncn2C=C2CC2CO)c(=O)[nH]1 | EC50 | MEF | plaque count |  | 0.3 µM
O=C(NCc1ccc(Cl)cc1)c1c[nH]c2ccc(C#CCO)cc2c1=O | EC50 |  | plaque count |  | 1.3 µM
COC(=O)[C@H](C)NP(=O)(OC[C@H]1C/C1=C/n1cnc2c(OC)nc(N)nc21)Oc1ccccc1 | EC50 | MEF |  |  | 0.24 µM
CCOP(=O)([O-])CCC(CO)OCn1cnc2c(=O)[nH]c(N)nc21 | EC50 | 3T3 | cytopathic effect | SMITH | 6.1 µg/mL
Nc1nc(F)c2ncn(/C=C3/CC3(CO)CO)c2n1 | EC50 | MEF | plaque count |  | 8.7 µM
CN(C)c1cccc2c(S(=O)(=O)Nc3ccc(NC(=O)C(C)(C)CO)cc3)cccc12 | EC50 |  | plaque count | Smith (resistant) | 28.3 µM
CCOP(=O)(O)COCOn1cnc2c(=O)[nH]c(N)nc21 | EC50 |  |  | SMITH | 0.51 µg/mL
CCCCCSc1nc(N)nc2c1ncn2/C=C1/C[C@@H]1CO | EC50 | MEF | plaque count |  | 1.4 µM
C=CCOc1nc(N)nc2c1ncn2/C=C1/C[C@@H]1CO | EC50 | MEF | plaque count |  | 0.3 µM
Nc1nc(NC2CC2)c2ncn(/C=C3/C[C@@H]3CO)c2n1 | EC50 | MEF | plaque count |  | 0.1 µM
Nc1nc2c(ncn2COC(COP(=O)(O)O)COP(=O)(O)O)c(=O)[nH]1 | EC50 | MRC-5 | plaque count | SMITH | 28.1 µM
CCCCCCCCCCCCCCCCOCCCOP(=O)(O)OCC(CO)OCn1cnc2c(=O)[nH]c(N)nc21 | EC50 | MRC-5 | plaque count |  | 105.8 µM
Cn1cc(C(=O)NCc2ccc(Cl)cc2)c(=O)c2cc(CN3CCOCC3)ccc21 | EC50 | HFF | plaque count |  | 1.4 µM
Nc1nc2c(ncn2C[C@]2(CO)C[C@H]2CO)c(=O)[nH]1 | EC50 | C1271 | cytopathic effect | SMITH | 15 µg/mL
Nc1ncnc2c1ncn2C=C1CC1CO | EC50 | MEF | plaque count |  | 2.1 µM
O=c1[nH]c(=O)n([C@H]2C[C@H](O)[C@@H](CO)O2)cc1C(F)(F)F | EC50 | MEF | virus yield | ATCC VR-194 | 0.22 µM
CC(=O)OCC(CO)OCn1cnc2c(=O)[nH]c(N)nc21 | EC50 | HFF | plaque count |  | 3.4 µg/mL
C#CCNc1nc(N)nc2c1ncn2/C=C1/C[C@@H]1CO | EC50 | MEF | plaque count |  | 0.4 µM
Nc1ccn(C[C@H]2COP(=O)(O)CO2)c(=O)n1 | EC50 | MRC-5 | plaque count |  | 0.39 µM
Nc1nc(N)c2ncn(C=C3CC3CO)c2n1 | EC50 | MEF |  |  | 0.6 µM
Nc1nc2c(ncn2/C=C2/CC2(CO)CO)c(=O)[nH]1 | EC50 | MEF | plaque count |  | 0.3 µM
COC(=O)[C@H](C)NP(=O)(OC[C@H]1C/C1=C/n1cnc2c(N)nc(N)nc21)Oc1ccccc1 | EC50 | MEF |  |  | 3.2 µM
N=c1c2ncn([C@@H]3O[C@H](COP(=O)(O)O)[C@@H](O)[C@@H]3O)c2ncn1O | MIC |  |  |  | 1–10 µg/mL
O=C(Nc1ccc(NC(=S)Nc2cc(C(F)(F)F)cc(C(F)(F)F)c2)cc1)c1csnn1 | EC50 | HFF | virus yield | SMITH | >20 µM
CCCCCCCCCCCCCCCCCCOC[C@H](COP(=O)(O)CO[C@H](CO)Cn1ccc(N)nc1=O)OCc1ccccc1 | EC50 | MEF | plaque count | SMITH | 0.0045 µM
Cc1nc2ccc(CN(C)c3ccc(C(=O)N[C@@H](CCC(=O)O)C(=O)O)s3)cc2c(=O)[nH]1 | EC50 |  | virus yield |  | 0.006 µM
CCCCCCCCCCCCCCCCCCOC[C@H](COP(=O)(O)CO[C@H](CO)Cn1ccc(N)nc1=O)OCc1ccccc1 | EC50 | MEF | plaque count |  | 0.005 µM
O=C(O)P(=O)(O)O | EC50 | MEF | plaque count |  | 57 µg/mL
CCCCCCCCCCCCCCOCCCOP(=O)(O)CO[C@H](CO)Cn1ccc(N)nc1=O | EC50 | MEF | plaque count | SMITH | 0.004 µM
CCCCCCCCCCCCCCCCCOC[C@H](COP1(=O)CO[C@@H](Cn2ccc(N)nc2=O)CO1)OCc1ccccc1 | EC50 | MEF | plaque count |  | 0.03 µM
CCCCCCCCCCCCCCCCOCCCOP1(=O)CO[C@@H](Cn2ccc(N)nc2=O)CO1 | EC50 | MEF | plaque count | SMITH | 0.004 µM
CCOP(=O)(O)CCC(CO)OCn1cnc2c(=O)[nH]c(N)nc21 | EC50 | MRC-5 | plaque count | SMITH | 17 µg/mL
CCCCCCCCCCCCCCCCOCCCOP(=O)(O)CO[C@H](CO)Cn1ccc(N)nc1=O | EC50 | MEF | plaque count | SMITH | 0.0009 µM
Nc1nc2c(ncn2COC(CO)CO)c(=O)[nH]1 | EC50 | 10T1/2 | plaque count | SMITH | 3.7 µM
C#CCNc1nc(N)nc2c1ncn2/C=C1/C[C@@H]1CO | EC50 | MEF | plaque count |  | 0.4 µM
NC(=S)c1cn(COCCO)c2ncnc(N)c12 | EC50 | HFF | plaque count | SMITH | 16 µM
N/C(=N\O)c1cc(O)c(O)c(O)c1 | EC50 |  | plaque count | SMITH | 7.12 µM
CN(Cc1cnc2nc(N)nc(N)c2n1)c1ccc(C(=O)N[C@@H](CCC(=O)O)C(=O)O)cc1 | EC50 | HFF | plaque count |  | 0.22 µM
CN(C)c1cccc2c(S(=O)(=O)Nc3ccc(NC(=O)C(C)(C)CO)cc3)cccc12 | EC50 |  | plaque count | BAY 38-4766-resistant | 28.3 µM
CCCCCCCCCCCCOCCCOP(=O)(O)CO[C@H](CO)Cn1ccc(N)nc1=O | EC50 | MEF | plaque count | SMITH | 0.015 µM
Nc1nc2c(ncn2/C=C2/CC2(CO)CO)c(=O)[nH]1 | EC50 | MEF | plaque count |  | 9.7 µM
CC(C)Nc1nc2cc(Cl)c(Cl)cc2n1[C@H]1O[C@@H](CO)[C@H](O)[C@@H]1O | EC50 | HFF | plaque count | Smith (resistant) | 30 µM
CC(C)Nc1nc2cc(Cl)c(Cl)cc2n1[C@H]1O[C@@H](CO)[C@H](O)[C@@H]1O | EC50 | HFF | plaque count |  | >11 µM
Nc1nc2c(ncn2C[C@@H]2CC[C@@H](P(=O)(O)O)O2)c(=O)[nH]1 | EC50 | 3T3-L1 | plaque count | SMITH | 0.03 µg/mL
CN(C)c1cccc2c(S(=O)(=O)Nc3ccc(NC(=O)C(C)(C)CO)cc3)cccc12 | EC50 | HFF | plaque count | Smith (resistant) | 28.3 µM
O=C(NCc1ccc(Cl)cc1)c1c[nH]c2c(F)cccc2c1=O | EC50 |  | plaque count | SMITH | 6.8 µM
Nc1nc(Cl)c2ncn(/C=C3/C[C@H]3CO)c2n1 | EC50 | MEF | plaque count |  | 0.3 µM
Nc1nc2c(ncn2COC(CO)CO)c(=O)[nH]1 | EC50 | MEF | plaque count |  | 5.2 µM
COC(=O)[C@H](C)NP(=O)(OC[C@H]1C/C1=C/n1cnc2c(OC)nc(N)nc21)Oc1ccccc1 | EC50 | MEF | plaque count |  | 0.24 µM
CCCCCCCC/C=C\CCCCCCCOCCOP1(=O)CO[C@@H](Cn2ccc(N)nc2=O)CO1 | EC50 | MEF | plaque count |  | 0.001 µM
Nc1nc2c(ncn2COC(CO)CO)c(=O)[nH]1 | EC50 | HFF | plaque count |  | 2.9 µM
COC(=O)[C@H](C)NP(=O)(OC[C@H]1C/C1=C/n1cnc2c(N)nc(N)nc21)Oc1ccccc1 | EC50 | MEF | plaque count |  | 3.2 µM
NC1=NCCN1CC(=O)O | EC50 | 3T3 | cytopathic effect |  | 16100 µM
CCCCCCCC/C=C\CCCCCCCOCCCOP1(=O)CO[C@@H](Cn2ccc(N)nc2=O)CO1 | EC50 | MEF | plaque count | SMITH | 0.007 µM
O=C(NCc1ccc(Cl)cc1)c1c[nH]c2c(F)cc(CCCO)cc2c1=O | EC50 |  | plaque count | SMITH | 1.7 µM
Nc1ncnc2c1ncn2/C=C1/CC1(CO)CO | EC50 | MEF | plaque count | SMITH | 10 µM
Nc1nc2c(ncn2[C@@H]2C[C@H](CO)[C@H]2CO)c(=O)[nH]1 | EC50 | HFF | plaque count | SMITH (WILD TYPE) | 1.9 µM
Nc1ncnc2c1ncn2/C=C1/C[C@H]1CO | EC50 | MEF | plaque count |  | 55 µM
CCCCCCCC/C=C\CCCCCCCCOCCOP(=O)(O)CO[C@H](CO)Cn1ccc(N)nc1=O | EC50 | MEF | plaque count | SMITH | 0.004 µM
CCCC(=O)OCC(COC(=O)CCC)OCn1cnc2c(=O)[nH]c(N)nc21 | EC50 | HFF | plaque count |  | 4.4 µg/mL

Again, the opening 7 rows:

compound | measure | cells | read by | strain or isolate | result
Nc1nc(N)c2ncn(C=C3CC3CO)c2n1 | EC50 | MEF | plaque count |  | 0.6 µM
COc1cc(OC)c(NC(=S)Nc2ccc(NC(=O)c3ccco3)cc2)cc1Cl | EC50 | MEF |  | SMITH | >20 µM
CC(C)(CF)C(=O)Nc1cccc(NS(=O)(=O)c2ccc(-c3noc(-c4ccccc4)n3)cc2)c1 | EC50 | 3T3 | cytopathic effect | SMITH | 0.03 µM
Nc1ccn(C[C@@H](CO)OCP(=O)(O)O)c(=O)n1 | EC50 | MRC-5 | plaque count |  | 0.26 µM
Nc1nc2c(ncn2C=C2CC2CO)c(=O)[nH]1 | EC50 | MEF | plaque count |  | 0.3 µM
O=C(NCc1ccc(Cl)cc1)c1c[nH]c2ccc(C#CCO)cc2c1=O | EC50 |  | plaque count |  | 1.3 µM
COC(=O)[C@H](C)NP(=O)(OC[C@H]1C/C1=C/n1cnc2c(OC)nc(N)nc21)Oc1ccccc1 | EC50 | MEF |  |  | 0.24 µM